Results on three sequences are retold here after article PMC10359466, “Identification of a small-molecule inhibitor that selectively blocks DNA-binding by Trypanosoma brucei replication protein A1” (Nature Communications, 2023).

For at least one entry, the source does not settle the construct or the ends of the probe. For part of these data: A weaker result is weaker than the reference pair of the same experiment. For part of these data: Protein sequences can lack the tags named with them.

Data set [1] has as its system TbRPA complex: 6xHis-RPA1 + TbRPA2 + TbRPA3. Kind of data set: EMSA, MST. Particulars: 20 mM Tris pH 7.5, 10 mM NaCl, 10 mM MgCl2, 2 mM DTT, 10% glycerol, 0.1 mg/ml BSA, 15 min, room temperature, EMSA 2 nM probe (gel at 4 C), MST 10 nM probe, recombinant protein, protein details: N-term 6xHis, thrombin site,none,none, label: 5' Cy5 (MST) or 5' IRDye800 (EMSA), single-stranded DNA. (In EMSA bound probe runs differently from free probe, usually more slowly.)

The target in data set [2] is T1, TbRPA1 DBD-AB (Trypanosoma brucei) (UniProt Q384B5).
T1 sequence (looked up, limits assumed): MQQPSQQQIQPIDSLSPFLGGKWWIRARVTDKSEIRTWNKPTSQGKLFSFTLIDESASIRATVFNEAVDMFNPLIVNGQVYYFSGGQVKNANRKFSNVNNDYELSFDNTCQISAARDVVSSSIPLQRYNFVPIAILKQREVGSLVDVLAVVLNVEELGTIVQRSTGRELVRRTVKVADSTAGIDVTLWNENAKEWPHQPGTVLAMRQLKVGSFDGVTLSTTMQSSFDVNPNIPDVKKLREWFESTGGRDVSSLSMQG
Kind of data set: MST. Particulars: with JC-229 (inhibitor IC50 881 nM); 20 mM Tris pH 7.5, 10 mM NaCl, 10 mM MgCl2, 2 mM DTT, 10% glycerol, 0.1 mg/ml BSA, 15 min, room temperature; recombinant protein; protein details: N-term 6xHis (pET28a); label: 5' Cy5 (MST) or 5' IRDye800 (EMSA); single-stranded DNA.

Data set [3] deals with TbRPA complex: 6xHis-RPA1 + TbRPA2 + TbRPA3. Kind of data set: MST. Particulars: with JC-229 (inhibitor IC50 33.9 nM); 20 mM Tris pH 7.5, 10 mM NaCl, 10 mM MgCl2, 2 mM DTT, 10% glycerol, 0.1 mg/ml BSA, 15 min, room temperature; recombinant protein; protein details: N-term 6xHis, thrombin site,none,none; label: 5' Cy5 (MST) or 5' IRDye800 (EMSA); single-stranded DNA.
Data set [4] deals with T1, TbRPA1 DBD-AB (Trypanosoma brucei). Kind of data set: EMSA, MST. Particulars: with JC-229 (inhibitor IC50 228 nM by MST); 20 mM Tris pH 7.5, 10 mM NaCl, 10 mM MgCl2, 2 mM DTT, 10% glycerol, 0.1 mg/ml BSA, 15 min, room temperature; EMSA 2 nM probe (gel at 4 C), MST 10 nM probe; recombinant protein; protein details: N-term 6xHis (pET28a); label: 5' Cy5 (MST) or 5' IRDye800 (EMSA); single-stranded DNA.

The subject of data set [5] is TbRPA complex: 6xHis-RPA1 + TbRPA2 + TbRPA3. Kind of data set: EMSA. Particulars: 20 mM Tris pH 7.5, 10 mM NaCl, 10 mM MgCl2, 2 mM DTT, 10% glycerol, 0.1 mg/ml BSA, 15 min, room temperature; EMSA 2 nM probe (gel at 4 C), MST 10 nM probe; recombinant protein; protein details: N-term 6xHis, thrombin site,none,none; label: 5' Cy5 (MST) or 5' IRDye800 (EMSA); single-stranded DNA.

Take TTTTTTTTTTTT [dT12]: the binding result in data set [1] is listed as “binds more weakly”.

Take TTTTTTTTTTTTTTTTTTTT [dT20]: the binding result in data set [2] and in data set [3] was “binds more weakly” throughout.

Turning to TTTTTTTTTTTTTTTTTTTTTTTTTTTTTTTT [dT32], the binding result was “binds more weakly” in data set [4]; “binds more weakly” in data set [1] (with JC-229 (inhibitor IC50 24.5 nM, 33.9 nM in length series, MST)); “binds” in data set [5].
